Measurements reported in PMC10434283, “A Novel Two-Component Bacteriocin, Acidicin P, and Its Key Residues for Inhibiting Listeria monocytogenes by Targeting the Cell Membrane” (Microbiology Spectrum, 2023).

Assay: Circular dichroism (CD) spectroscopy, secondary structure
Type: physicochemical
Settings: peptide 0.2 mg/mL; for calculated helicity: CD at 50% TFE; for CD spectrum, conformation: aqueous solution

Sequence	calculated helicity [%]	CD spectrum, conformation
KKKRGFWYHVGDAVTSFGRGFASAFG [Adpβ, 26-residue mature β peptide of the two-component bacteriocin acidicin P, obtained by solid-phase peptide synthesis]	16.5	nonstructured conformations
RNKMAYNVGKAISRIMRRVR [Adpα, 20-residue mature α peptide of the two-component bacteriocin acidicin P, obtained by solid-phase peptide synthesis]	24.9	nonstructured conformations
